Data reported in paper PMC8001737, “Isolation and Characterization of Cross-Reactive Human Monoclonal Antibodies That Potently Neutralize Australian Bat Lyssavirus Variants and Other Phylogroup 1 Lyssaviruses” (Viruses, 2021).

Molecular target: ABLVp glycoprotein (G), on recombinant vesicular stomatitis virus rVSV-ABLVp-G (Australian bat lyssavirus (isolate …, UniProt Q8JTH0, strain))

B1: human monoclonal antibody A6 (IgG1) (antibody, V domains shown)
VH: EVQLVQSGAEVKKPGASVKVSCKASGYDFTDFYVHWVRQAPGQRLEWMGWINPGSGATDYAQKFQGRVTMTRDTSISTAYMEVSRLRSDDTAMYYCARPNAPRYMERLSATPSFDSWGQGTLVTVS
VL: EIVLTQSPGTLSLSPGEGATLSCRASQSVSSINLAWYQQKPGQAPRLLMYGASTRATGIPDRFSGSGSGTDFTLTISRLESEDFAVYYCQQYGSSPLTFGGGTKVEIK
  binding result: binds
